Values from PubChem BioAssay AID624099 (ICCB-Longwood, 2012).

Screen: 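Human genes that papillomavirus E2 requires to repress the HPV18 LCR promoter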 (primary screen)
System: human C33A cervical carcinoma cells (HPV-negative) stably expressing BPV1 E2 and an HPV18 LCR luciferase reporter
Reagents: siRNA pool against human genes, 40 nM
Duration: 72 h
Measured: 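Per-well luciferase luminescence, z-scored on each plate against the plate mean and SD with control wells left out, then averaged across three replicate plates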
Direction: mean z-score and z-score: higher = stronger reporter signal, weaker E2 silencing
Rule for the call: 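Mean z ≥ 2 together with z ≥ 2 in two or more of the three replicates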
Shown is one part, drawn at random, of about 21,000 reagents. In the full data, 497 (2.4%) were called active. 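Higher z means weaker E2 silencing; only reporter increases were scored, and knock-downs that hurt cell survival may mask genuine repressor factors.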

ASAP2 (ArfGAP with SH3 domain, ankyrin repeat and PH domain 2): mean z-score = -0.19; z-score, replicate A = -0.21; z-score, replicate B = -0.01; z-score, replicate C = -0.35; Call = inactive
FZD10 (frizzled class receptor 10): mean z-score = 0.45; z-score, replicate A = 0.54; z-score, replicate B = 0.46; z-score, replicate C = 0.34; Call = inactive
ABCA12 (ATP binding cassette subfamily A member 12): mean z-score = 0.7; z-score, replicate A = 0.7; z-score, replicate B = 0.66; z-score, replicate C = 0.72; Call = inactive
THAP12 (THAP domain containing 12): mean z-score = 0.37; z-score, replicate A = 0.47; z-score, replicate B = 0.08; z-score, replicate C = 0.55; Call = inactive
UBTD1 (ubiquitin domain containing 1): mean z-score = -1.5; z-score, replicate A = -1.23; z-score, replicate B = -1.71; z-score, replicate C = -1.56; Call = inactive
LOC389398 (retired record): mean z-score = -0.03; z-score, replicate A = 0.03; z-score, replicate B = -0.01; z-score, replicate C = -0.12; Call = inactive
HLA-DMB (major histocompatibility complex, class II, DM beta): mean z-score = 1.07; z-score, replicate A = 1.01; z-score, replicate B = 1.27; z-score, replicate C = 0.93; Call = inactive
PLAUR (plasminogen activator, urokinase receptor): mean z-score = -1.49; z-score, replicate A = -1.49; z-score, replicate B = -1.51; z-score, replicate C = -1.46; Call = inactive
TOMM7 (translocase of outer mitochondrial membrane 7): mean z-score = -1.26; z-score, replicate A = -1.35; z-score, replicate B = -1.29; z-score, replicate C = -1.13; Call = inactive
IGHG3 (immunoglobulin heavy constant gamma 3 (G3m marker)): mean z-score = 1.36; z-score, replicate A = 1.52; z-score, replicate B = 1.28; z-score, replicate C = 1.28; Call = inactive
FAAH2 (fatty acid amide hydrolase 2): mean z-score = -0.03; z-score, replicate A = -0.23; z-score, replicate B = 0.01; z-score, replicate C = 0.12; Call = inactive
NDST4 (N-deacetylase and N-sulfotransferase 4): mean z-score = 0.69; z-score, replicate A = 0.16; z-score, replicate B = 0.94; z-score, replicate C = 0.96; Call = inactive
CEP20 (centrosomal protein 20): mean z-score = 0.93; z-score, replicate A = 1.33; z-score, replicate B = 0.73; z-score, replicate C = 0.73; Call = inactive
CMTM4 (CKLF like MARVEL transmembrane domain containing 4): mean z-score = -0.4; z-score, replicate A = -0.5; z-score, replicate B = -0.82; z-score, replicate C = 0.12; Call = inactive
SLC24A1: mean z-score = 0.35; z-score, replicate A = 0.05; z-score, replicate B = 0.71; z-score, replicate C = 0.29; Call = inactive
M6PR (mannose-6-phosphate receptor, cation dependent): mean z-score = 0.75; z-score, replicate A = 0.9; z-score, replicate B = 0.67; z-score, replicate C = 0.68; Call = inactive
ARID3C (AT-rich interaction domain 3C): mean z-score = -0.92; z-score, replicate A = -0.81; z-score, replicate B = -0.88; z-score, replicate C = -1.07; Call = inactive
EIF2S1 (eukaryotic translation initiation factor 2 subunit alpha): mean z-score = -3.76; z-score, replicate A = -3.84; z-score, replicate B = -3.65; z-score, replicate C = -3.8; Call = inactive
WNT2B (Wnt family member 2B): mean z-score = -0.87; z-score, replicate A = -0.85; z-score, replicate B = -1.07; z-score, replicate C = -0.71; Call = inactive
RAB37 (RAB37, member RAS oncogene family): mean z-score = -0.53; z-score, replicate A = -0.52; z-score, replicate B = -0.52; z-score, replicate C = -0.57; Call = inactive
SRXN1 (sulfiredoxin 1): mean z-score = -1.03; z-score, replicate A = -1.07; z-score, replicate B = -1.2; z-score, replicate C = -0.82; Call = inactive
